Results of unrelated studies side by side (data: NIAID ChemDB).

Common to all: toxicity to cultured cells; cell line: CEM; read-out: CC50

Rows are shuffled and stem from different studies.

{"compound": "CCCCC(=O)NCCCCCCCC(=O)O", "result": ">100 µg/mL"}
{"compound": "O=C(c1cccc(Br)c1)c1ccc2[nH]c(=O)oc2c1", "result": "18 µg/mL"}
{"compound": "Nc1ncnc2c1ncn2C[C@H]1C[C@H]1[C@H](O)CO", "result": ">100 µM"}
{"compound": "O=c1ccn(C2CC(CO)(CO)C2)c(=O)[nH]1", "result": ">30 µg/mL"}
{"compound": "Cc1cc(C)cc(C(=O)c2c(C(C)C)c(=O)[nH]c(=O)n2CCC2CC=CC2)c1", "result": "35.8 µM"}
{"compound": "CCCCCCCCCCCC(=O)Oc1ccc(COP(=O)(OCc2ccc(OC(=O)CCCCCCCCCCC)cc2)OP(=O)(O)OC[C@@H]2C=C[C@H](n3cc(C)c(=O)[nH]c3=O)O2)cc1", "result": "39 µM"}
{"compound": "Cc1cc(C)cc(Sc2c(C(C)C)c(=O)[nH]c(=O)n2CCC2C=CCC2)c1", "result": "38 µM"}
{"compound": "Cc1cn([C@H]2O[C@@H](CO)C=C2F)c(=O)[nH]c1=O", "result": ">100 µM"}
{"compound": "Nc1ncnc2c1ccn2CCOCP(=O)(O)O", "result": ">4 µg/mL"}
{"compound": "O=c1[nH]cnc2c1ncn2C[C@H]1C[C@H]1[C@H](O)CO", "result": ">100 µM"}
{"compound": "COc1cc(/C=N/N=C(\\N)NO)c(Cl)cc1O.Cc1ccc(S(=O)(=O)O)cc1", "result": "69 µg/mL"}
{"compound": "CNC(=O)c1ccccc1SSc1ccccc1C(=O)NC", "result": "11 µM"}
{"compound": "CCOC(=O)c1cc(NC(=S)OC(C)C)ccc1C", "result": ">355.4 µM"}
{"compound": "Cc1cccc(C(=O)c2ccc3c(c2)sc(=O)n3C)c1", "result": "<0.32 µg/mL"}
{"compound": "CC(=O)CCCCCCCCCCCC(=O)O", "result": "45 µg/mL"}
{"compound": "Cc1cn([C@H]2C[C@H](N=[N+]=[N-])[C@@H](CO)S2)c(=O)[nH]c1=O", "result": ">100 µg/mL"}
{"compound": "CC(=O)COc1cc(NC(=S)OC(C)C)ccc1Cl", "result": "60.27 µM"}
{"compound": "CCS[C@]12CS(=O)(=O)O[C@@]13[C@@H](CN2)O[C@@H](n1cc(C)c(=O)[nH]c1=O)[C@@H]3O[Si](C)(C)C(C)(C)C", "result": "80.6 µM"}
{"compound": "CCC[C@@H](CCC(=O)O)NC(=O)c1ccccc1SSc1ccccc1C(=O)N[C@@H](CCC)CCC(=O)O", "result": "50 µM"}
{"compound": "Nc1nc2c(ncn2[C@H]2CC[C@@H](CO)S2)c(=O)[nH]1", "result": ">100 µg/mL"}
{"compound": "Cc1ccc(NC(=O)c2cc(S(=O)(=O)N3CCNNC3=O)c(S)cc2Cl)cc1", "result": ">200 µM"}
{"compound": "Nc1ccn([C@H]2CC[C@@H](CO)O2)c(=O)n1", "result": ">5.3 µg/mL"}
{"compound": "Nc1nc2c(ncn2[C@H]2O[C@@H](CO)C=C2F)c(=O)[nH]1", "result": ">100 µM"}
{"compound": "Nc1ccn([C@@H]2C=C(F)[C@H](CO)O2)c(=O)n1", "result": ">100 µM"}
{"compound": "CC(C)OC(=S)Nc1ccc(Cl)c(C(=O)OCc2ccccc2)c1", "result": ">275 µM"}
{"compound": "CC(C)CCCCCOP(=O)(COCCn1cnc2c(N)ncnc21)OCCCCCC(C)C", "result": ">4 µg/mL"}
{"compound": "O=C(c1cccc(Br)c1)c1ccc2[nH]c(=O)sc2c1", "result": "10 µg/mL"}
{"compound": "O=C(Nc1ccc(Cl)cc1)c1cc(S(=O)(=O)N2CCNNC2=O)c(S)cc1Cl", "result": ">200 µM"}
{"compound": "O=C(O)CC(NC(=O)c1ccccc1SSc1ccccc1C(=O)NC(CC(=O)O)c1ccccc1)c1ccccc1", "result": ">100 µM"}
{"compound": "NC(=O)c1ccccc1SSc1ccccc1C(N)=O", "result": "21 µM"}
{"compound": "Nc1nc2c(ncn2C[C@H]2C[C@H]2CO)c(=O)[nH]1", "result": ">100 µM"}
{"compound": "CCCCCNC(=O)CCCCCCC(=O)O", "result": ">100 µg/mL"}
{"compound": "CCC(C)C(NC(=O)c1ccccc1SSc1ccccc1C(=O)NC(C(=O)O)C(C)CC)C(=O)O", "result": ">100 µM"}
{"compound": "CC(C)(C)OC(=O)[C@H](CC(N)=O)NC(=O)c1ccccc1SSc1ccccc1C(=O)N[C@@H](CC(N)=O)C(=O)OC(C)(C)C", "result": ">100 µM"}
{"compound": "CC(C)OC(=S)Nc1ccc(Cl)c(C(=O)OC2(C)COC2)c1", "result": "20.65 µM"}
{"compound": "NCCCC[C@H](NC(=O)c1ccccc1SSc1ccccc1C(=O)N[C@@H](CCCCN)C(=O)O)C(=O)O", "result": ">100 µM"}
{"compound": "O=C(O)CCCCCCCCc1ncc[nH]1", "result": ">500 µg/mL"}
{"compound": "O=c1ccn(C[C@H]2C[C@H]2CO)c(=O)[nH]1", "result": ">100 µM"}
{"compound": "CC(C)OC(=S)Nc1ccc(Cl)c(C(=O)OCC[Si](C)(C)C)c1", "result": "50.81 µM"}
{"compound": "Nc1nc(Cl)c2ncn(CCOCP(=O)(O)O)c2n1", "result": ">0.16 µg/mL"}
{"compound": "Nc1nc(=O)n([C@@H]2O[C@@H](CO)C=C2F)cc1F", "result": ">100 µM"}
{"compound": "Cc1cc(C)cc(C(=O)c2c(C(C)C)c(=O)[nH]c(=O)n2CCC2CCCC2)c1", "result": "23.8 µM"}
{"compound": "CSCCOC(=S)Nc1ccc(Cl)c(C(=O)OC(C)C)c1", "result": "241 µM"}
{"compound": "CCC(C)[C@@H](C(=O)O)N(C)C(=O)c1ccccc1SSc1ccccc1C(=O)N(C)[C@H](C(=O)O)C(C)CC", "result": ">100 µM"}
{"compound": "Nc1ncnc2c1ncn2[C@@H]1O[C@@H](CO)C=C1F", "result": ">100 µM"}
{"compound": "CCc1c(Sc2cc(C)cc(C)c2)n(CC2CCC2)c(=O)[nH]c1=O", "result": "991 µM"}
{"compound": "CCCCCCCCCCCCNC(=O)c1ccccc1SSc1ccccc1C(=O)NCCCCCCCCCCCC", "result": "20 µM"}
{"compound": "CCCCCCC(=O)CCCCCCC(=O)O", "result": "15 µg/mL"}
{"compound": "O=C(N[C@H](CO)c1ccccc1)c1ccccc1SSc1ccccc1C(=O)N[C@H](CO)c1ccccc1", "result": "21 µM"}
{"compound": "O=C(c1ccccc1SSc1ccccc1C(=O)N1CCCC1)N1CCCC1", "result": "25 µM"}
{"compound": "CCCCCCCCCCCCCC(=O)Oc1ccc(COP(=O)(OCc2ccc(OC(=O)CCCCCCCCCCCCC)cc2)OP(=O)(O)OC[C@@H]2C=C[C@H](n3cc(C)c(=O)[nH]c3=O)O2)cc1", "result": "134 µM"}
{"compound": "CCOC(=O)CCNC(=O)c1ccccc1SSc1ccccc1C(=O)NCCC(=O)OCC", "result": "40 µM"}
{"compound": "O=c1[nH]cnc2c1ncn2[C@H]1O[C@@H](CO)C=C1F", "result": ">100 µM"}
{"compound": "COc1ccc(/C=N/N=C(\\N)NO)cc1O.Cc1ccc(S(=O)(=O)O)cc1", "result": "44 µg/mL"}
{"compound": "CCO[C@]12CS(=O)(=O)O[C@@]13[C@@H](CN2)O[C@@H](Sc1ccccc1)[C@@H]3O[Si](C)(C)C(C)(C)C", "result": "131 µM"}
{"compound": "O=C(NCCO)c1ccccc1SSc1ccccc1C(=O)NCCO", "result": "16 µM"}
{"compound": "Nc1nc(NC2CC2)c2ncn([C@H]3C=C[C@@H](CO)C3)c2n1", "result": "97 µM"}
{"compound": "CCC(CC)OC(=O)c1cc(NC(=S)OC(C)C)ccc1Cl", "result": "15.99 µM"}
{"compound": "Nc1ncnc2c1ncn2C1OC(CO)C=C1F", "result": ">100 µM"}
{"compound": "CCCCO[C@]12CS(=O)(=O)O[C@@]13C(CN2)O[C@@H](n1cc(C)c(=O)[nH]c1=O)[C@@H]3O[Si](C)(C)C(C)(C)C", "result": "34.8 µM"}
{"compound": "CC[C@@H](C)OC(=S)Nc1ccc(Cl)c(C(=O)OC(C)C)c1", "result": "30.32 µM"}
{"compound": "Cc1cn([C@H]2C=C[C@@H](CO)O2)c(=O)[nH]c1=O", "result": ">250 µM"}
{"compound": "NC(=O)c1ccc(NC(=O)c2ccccc2SSc2ccccc2C(=O)Nc2ccc(C(N)=O)cc2)cc1", "result": ">100 µM"}
{"compound": "COc1ccc(/C=N/N=C(\\N)NO)c(OC)c1.Cc1ccc(S(=O)(=O)O)cc1", "result": "78 µg/mL"}
{"compound": "Nc1ncnc2c1ncn2C1CC(CO)(CO)C1", "result": ">30 µg/mL"}
{"compound": "CC(C)c1c(Sc2ccccc2)n(CC2CC=CC2)c(=O)[nH]c1=O", "result": "36.2 µM"}
{"compound": "CC[C@@H](C)[C@@H](NC(=O)c1ccccc1SSc1ccccc1C(=O)N[C@@H](C(=O)O)[C@H](C)CC)C(=O)O", "result": "113 µM"}
{"compound": "NS(=O)(=O)c1ccc(NC(=O)c2ccccc2COc2ccccc2C(=O)Nc2ccc(S(N)(=O)=O)cc2)cc1", "result": ">100 µM"}
{"compound": "CCCCCCCCC(=O)NCCCC(=O)O", "result": "65 µg/mL"}
{"compound": "Nc1nc2c(ncn2[C@H]2C=C[C@@H](CO)C2)c(=O)[nH]1", "result": "157 µM"}
{"compound": "Cc1cccc(C(=O)c2ccc3[nH]c(=O)sc3c2)c1", "result": "11 µg/mL"}
{"compound": "O=C(O)CNC(=O)c1ccccc1SSc1ccccc1C(=O)NCC(=O)O", "result": ">200 µM"}
{"compound": "Nc1ccn([C@H]2S[C@@H](CO)C=C2F)c(=O)n1", "result": ">100 µM"}
{"compound": "Nc1ccn([C@H]2O[C@@H](CO)C=C2F)c(=O)n1", "result": ">100 µM"}
{"compound": "CCC(C)OC(=S)Nc1ccc(Cl)c(C(=O)OC(C)(C)C)c1", "result": "23.26 µM"}
{"compound": "Nc1nc2c(ncn2CCOCP(=O)(O)O)c(=O)[nH]1", "result": ">0.03 µg/mL"}
{"compound": "CO[C@]12CS(=O)(=O)O[C@@]13C(CN2)O[C@@H](n1cc(C)c(=O)[nH]c1=O)[C@@H]3O[Si](C)(C)C(C)(C)C", "result": "111 µM"}
{"compound": "CC(C)CC(NC(=O)c1ccccc1SSc1ccccc1C(=O)NC(CC(C)C)C(=O)O)C(=O)O", "result": "130 µM"}
{"compound": "COc1ccc(/C=N/N=C(/N)NO)cc1OC", "result": "62 µg/mL"}
{"compound": "NNC(=O)c1ccccc1SSc1ccccc1C(=O)NN", "result": "16 µM"}
{"compound": "Cc1ccccc1OC(=O)c1cc(NC(=S)OC(C)C)ccc1Cl", "result": "129 µM"}
{"compound": "CC(C)CCCCCOP(=O)(COCCn1cnc2c(N)nc(N)nc21)OCCCCCC(C)C", "result": ">4 µg/mL"}
{"compound": "Nc1ccn([C@H]2C=C(F)[C@@H](CO)O2)c(=O)n1", "result": ">100 µM"}
{"compound": "Nc1nc(F)nc2c1ncn2[C@H]1O[C@@H](CO)C=C1F", "result": "19.5 µM"}
{"compound": "Cc1cc(S(=O)(=O)Nc2nnc3cc(C(F)(F)F)cc(C)n23)c(S)cc1Cl", "result": "108 µM"}
{"compound": "CCCCCCOC(=O)CCCCCC(=O)O", "result": ">100 µg/mL"}
{"compound": "CCS[C@]12CS(=O)(=O)O[C@@]13[C@@H](CN2)O[C@@H](n1cc(C)c(=O)[nH]c1=O)[C@@H]3O", "result": ">250 µM"}
{"compound": "O=c1ccn([C@@H]2O[C@@H](CO)C=C2F)c(=O)[nH]1", "result": ">100 µM"}
{"compound": "C=CCOC(=S)Nc1ccc(Cl)c(C(=O)OC(C)C)c1", "result": "54.17 µM"}
{"compound": "C=C(C)C[C@H](NC(=O)c1ccccc1SSc1ccccc1C(=O)N[C@@H](CC(=C)C)C(=O)O)C(=O)O", "result": ">100 µM"}
{"compound": "CCCCOC(=O)CCCCCCCC(=O)O", "result": ">100 µg/mL"}
{"compound": "CCOC(=O)c1cc(NC(=S)OC(C)C)ccc1SC", "result": "76.57 µM"}
{"compound": "CCO[C@]12CS(=O)(=O)O[C@@]13[C@@H](CN2)O[C@@H](n1cc(C)c(=O)[nH]c1=O)[C@@H]3O", "result": ">250 µM"}
{"compound": "Cc1cc(S(=O)(=O)Nc2nnc3c(Cl)cc(C(F)(F)F)cn23)c(S)cc1Cl", "result": ">200 µM"}
{"compound": "CCO[C@]12CS(=O)(=O)O[C@@]13[C@@H](CN2)O[C@@H](n1cc(C)c(=O)[nH]c1=O)[C@@H]3O[Si](C)(C)CCC(C)(C)C", "result": "27 µM"}
{"compound": "COc1ccc(/C=N/N=C(\\N)NO)cc1F", "result": "20 µg/mL"}

9 of the rows above, restated:

compound | result
Cc1ccccc1OC(=O)c1cc(NC(=S)OC(C)C)ccc1Cl | 129 µM
CCCCCCCCCCCC(=O)Oc1ccc(COP(=O)(OCc2ccc(OC(=O)CCCCCCCCCCC)cc2)OP(=O)(O)OC[C@@H]2C=C[C@H](n3cc(C)c(=O)[nH]c3=O)O2)cc1 | 39 µM
CCOC(=O)c1cc(NC(=S)OC(C)C)ccc1C | >355.4 µM
CNC(=O)c1ccccc1SSc1ccccc1C(=O)NC | 11 µM
Cc1cc(C)cc(C(=O)c2c(C(C)C)c(=O)[nH]c(=O)n2CCC2CCCC2)c1 | 23.8 µM
CC(C)CCCCCOP(=O)(COCCn1cnc2c(N)ncnc21)OCCCCCC(C)C | >4 µg/mL
O=C(Nc1ccc(Cl)cc1)c1cc(S(=O)(=O)N2CCNNC2=O)c(S)cc1Cl | >200 µM
Cc1cn([C@H]2C=C[C@@H](CO)O2)c(=O)[nH]c1=O | >250 µM
CCO[C@]12CS(=O)(=O)O[C@@]13[C@@H](CN2)O[C@@H](n1cc(C)c(=O)[nH]c1=O)[C@@H]3O[Si](C)(C)CCC(C)(C)C | 27 µM

CCn: concentration that lowers growth or viability of the cells by n%.